From ChEMBL document CHEMBL4392846, “Identification and design of novel small molecule inhibitors against MERS-CoV papain-like protease via high-throughput screening and molecular modeling” (Bioorg Med Chem, 2019)

Biological target: Replicase polyprotein 1ab (Middle East respiratory syndrome-related coronavirus (isolate UnitedKingdom/H123990006/2012) (Betacoronavirus England 1) (Humancoronavirus EMC)) (UniProt K9N7C7)
Test: Ratio of Kd for MERS-CoV papain-like protease in presence of Z-Arg-Leu-Arg-Gly-Gly-AMC to Kd for MERS-CoV papain-like protease in absence of Z-Arg-Leu-Arg-Gly-Gly-AMC

`Cc1cc(C)n(S(=O)(=O)c2ccc(N)cc2)c(=O)n1` was tested. Which Ratio did it give?
The Ratio was 7.
